The values that follow come from patent US20040023211A1, “System and method for optimizing drug theraphy for the treatment of diseases” (priority 2000, published 2004).

This data set concerns HIV-1. Format: in vivo, adults infected with HIV-1. The note with it: IQpatient (Cmin / fold change) related to IQref, 17 patients.

Where two headings read alike, the source gives them in different places. Some results come without the dose or concentration used.

In the case of `CC(C)CN(C[C@@H](O)[C@H](Cc1ccccc1)NC(=O)O[C@H]1CCOC1)S(=O)(=O)c1ccc(N)cc1` [Amprenavir, amprenavir], the “NIQ, median” value was 2.8 and the “NIQ, range” value is reported as “(0.3-41.1)”. Besides, the “NIQ, range” value (listed as APV) was 0.3-41.1.
